Reference: PubChem BioAssay AID1621 (Southern Research Specialized Biocontainment Screening …, 2009)
This is one part of the list. Measured potencies and affinities stand elsewhere. The source made the active and inactive calls. How the calls were made is not given here.

Test: West Nile virus antiviral activity, cell-based, CPE readout (AID 1621)
Details: West Nile virus-infected cells, at 10 µM, hits give high values

| SMILES | CPE inhibition |
| --- | --- |
| CCOP(=O)(Nc1ccccc1)OCC | inactive: 0.15% |
| Cc1cc(SC(NC(=O)c2ccc(F)cc2)C(Cl)(Cl)Cl)ncn1 (stereo not given) | inactive: -0.28% |
| O=[N+]([O-])c1cc([N+](=O)[O-])c(CCN2CCOCC2)c([N+](=O)[O-])c1 | inactive: -1.05% |
| Nc1cccc2ccc([As](=O)(O)O)cc12 | inactive: 2.16% |
| CCN(N=Nc1nonc1N)c1nonc1N | inactive: -0.2% |
| CCOC(=O)NC(Sc1ccccc1)C(Cl)(Cl)Cl (stereo not given) | inactive: 0.1% |
| Cc1ccc(NP(=O)(Oc2cccc(C)c2)Oc2cccc(C)c2)nc1 | inactive: -0.32% |
| c1ccc(-c2nn[nH]n2)c(-c2nn[nH]n2)c1 | inactive: 0.34% |
| CCNC(=S)/N=C(\N)N[N+](=O)[O-] | inactive: -0.18% |
| O=C(NC1CCS(=O)(=O)C1)NP(=S)(Oc1ccccc1)Oc1ccccc1 (stereo not given) | inactive: -0.36% |
| CCC(=O)N1C2C3N(C(=O)CC)C1C1N(C(=O)CC)C(C(N1C(=O)CC)N3C(=O)CC)N2C(=O)CC | inactive: 0.29% |
| O=C(OC1CN2CCC1CC2)c1ccccc1 (stereo not given) | inactive: 0.54% |
| Cc1ccc(OP(=O)(Nc2ccccn2)Oc2ccc(C)cc2)cc1 | inactive: -1.55% |
| CC(=O)NC(SC(=S)N(CC(C)C)CC(C)C)C(Cl)(Cl)Cl (stereo not given) | inactive: -1% |
| COC(=O)c1cc2c(s1)N=C(c1ccccc1)N(C)P2(=O)N1CCOCC1 (stereo not given) | inactive: -0.09% |
| CN(C)C(=O)Oc1noc2ccccc12 | inactive: 0.64% |
| O=c1c2cc([N+](=O)[O-])ccc2[nH]c2c([N+](=O)[O-])cc([N+](=O)[O-])cc12 | inactive: -2.01% |
| Cc1ccccc1OP(=O)(Nc1ccccn1)Oc1ccccc1C | inactive: 0.71% |
| CCOc1ccc(C2=NCC(CBr)S2)cc1 (stereo not given) | inactive: 0% |
| O=P1(Nc2nc3ccc(Cl)cc3s2)COc2ccccc2O1 (stereo not given) | inactive: -0.58% |

| SMILES | CPE inhibition |
| --- | --- |
| CC(C)(C)C(=O)NC(Sc1ccccc1)C(Cl)(Cl)Cl (stereo not given) | inactive: 0.97% |
| C[C@@H]1C=CCP(=O)(Oc2ccccc2)O1 (stereo not given in full) | inactive: 0.4% |
| C[C@H]1OP(=O)(Oc2ccccc2)C[C@@H]2O[C@@H]21 (stereo not given in full) | inactive: -0.13% |
| CC(=O)c1ccc(N2CC2c2ccncc2)cc1 (stereo not given) | inactive: -1.04% |
| CC(=O)Nc1ccc(Oc2c([N+](=O)[O-])cc([N+](=O)[O-])cc2[N+](=O)[O-])cc1 | inactive: 0.63% |
| CC(=O)Nc1ccc([As](=O)(O)O)c(O)c1 | inactive: 0.14% |
| CC(C)C(=O)NC(Sc1ccccc1)C(Cl)(Cl)Cl (stereo not given) | inactive: -0.5% |
| O=P(Nc1nccs1)(c1ccccc1)c1ccccc1 | inactive: 0% |
| c1nnnn1CCn1cnnn1 | inactive: 0.35% |
| O=P(Nc1ccccn1)(c1ccc(Br)cc1)c1ccc(Br)cc1 | inactive: -0.82% |
| CN(C)C1(CNC(=O)c2ccc(Cl)c(S(N)(=O)=O)c2)CCCCC1 | inactive: 0.34% |
| C[C@H]1OP(=O)(Oc2ccccc2)[C@H](O)[C@H](O)[C@H]1N=[N+]=[N-] (stereo not given in full) | inactive: -0.07% |
| O=P(Nc1nc2ccccc2s1)(c1ccccc1)c1ccccc1 | inactive: -0.03% |
| O=[As](O)(c1ccccc1)c1ccc(O)cc1 | inactive: 0.57% |
| O=[N+]([O-])c1ccc(O)c(/C=N/Nc2ccc([N+](=O)[O-])cc2[N+](=O)[O-])c1 | inactive: 2.89% |
| O=[N+]([O-])c1ncn(CCn2cnc([N+](=O)[O-])n2)n1 | inactive: 0.13% |
| CC(=O)NC(SC(=S)N(C)C)C(Cl)(Cl)Cl (stereo not given) | inactive: -0.03% |
| O=C(OC1CN2CCC1CC2)c1cccc(Cl)c1 (stereo not given) | inactive: 0.73% |
| Nc1ccc([As](=O)(O)c2ccc([N+](=O)[O-])cc2)cc1 | inactive: -0.16% |
| C(Cc1nn[nH]n1)Cc1nn[nH]n1 | inactive: 0.56% |
